Measured values from several laboratories, pooled; numbers as filed in NIAID ChemDB.

Shared fields: growth or infection tests; agent: Mycobacterium tuberculosis

Blank or dashed fields: not listed here. MIC50, MIC90 and the like: level of inhibition, or share of isolates inhibited. Inhibition is in % at the dose shown (toxicity tests: loss of growth or viability). MIC bound: limit read from a one-dose screen. Rows are shuffled and stem from different studies.

compound,tested at,method,strain,mutations,cell line,endpoint,result
CC1=CC(=O)c2c(ccc(C3=C(C)C(=O)c4cccc(O)c4C3=O)c2O)C1=O,-,resazurin,CIBIN 99 (MDR-MTB),-,-,MIC,50 µg/mL
O=C(Nc1cc2sc3c(ccc4c(=O)c5ccccc5c(=O)c43)[nH]c2c2c(=O)c3ccccc3c(=O)c12)c1ccc2c3c(nsc13)-c1ccccc1C2=O,-,BACTEC,H37Rv,-,-,MIC bound,>12.5 µg/mL
CC[C@H]1OC(=O)[C@H](C)[C@@H](O[C@H]2C[C@@](C)(OC)[C@@H](O)[C@H](C)O2)[C@H](C)[C@@H](O[C@@H]2O[C@H](C)C[C@H](N(C)C)[C@H]2O)[C@](C)(OC)C[C@@H](C)C(=O)[C@H](C)[C@@H](O)[C@]1(C)O,-,-,50194,-,-,MIC,>4 µg/mL
C[C@@]12CCC3[C@@](CCC4[C@@]3(C)CCC[C@@]4(C)C(=O)NNC(=O)c3ccncc3)(CC1=NNC(=O)c1ccncc1)C2,-,-,H37Rv,-,-,MIC,20 µg/mL
O=C1C(N=Nc2ccccc2)Sc2nc3ccccc3n21,-,BACTEC,H37Rv,-,-,MIC,≥12.8 µg/mL
CO[C@H]1/C=C/O[C@@]2(C)Oc3c(C)c(O)c4c(O)c(c(/C=N/N5CCN(C)CC5)c(O)c4c3C2=O)NC(=O)/C(C)=C\C=C\[C@H](C)[C@H](O)[C@@H](C)[C@@H](O)[C@@H](C)[C@H](OC(C)=O)[C@@H]1C,-,resazurin,H37Rv (S-MTB),-,-,MIC,0.06 µg/mL
CC[C@@H](CO)NCCN[C@@H](CC)CO,-,-,29 isolates drug-resistant,-,-,MIC,5 µg/mL
O=C(N/N=C/c1ccccc1O)c1ccncc1,-,-,-,-,-,MIC,0.1 µg/mL
CCOC(=O)CC(NCc1ccccc1)[C@H]1O[C@@H]2OC(C)(C)O[C@@H]2[C@H]1OC,-,-,H37Rv,-,-,MIC,>100 µg/mL
N/N=C1\CCC(C(=O)NN)C1,12.5 µg/mL,BACTEC,H37Rv,-,-,inhibition,12%
C[C@H]1CC(=O)c2c(O)cccc2[C@H]1O,-,resazurin,CIBIN 99 (MDR-MTB),-,-,MIC,>100 µg/mL
O=C(NNC(=O)c1ccc(Cl)c([N+](=O)[O-])c1)c1ccncc1,-,-,H37Rv (ATCC 27294),-,-,MIC,0.5 µg/mL
CCCCNC(CC(=O)OCC)[C@H]1O[C@@H]2OC(C)(C)O[C@@H]2[C@H]1OC,-,-,H37Rv,-,-,MIC,>50 µg/mL
COc1ccc(C(OC[C@@H](O)CNCCNC[C@H](O)COC(c2ccc(OC)c(OC)c2)c2ccc(OC)c(OC)c2)c2ccc(OC)c(OC)c2)cc1OC,-,-,H37Rv,-,-,MIC,12.5 µg/mL
COc1ccc(-c2cc(C(=O)O)c3cc4ccccc4cc3n2)cc1Br,-,BACTEC,H37Rv,-,-,MIC,12.5 µg/mL
O=C(NNC(=O)c1ccc(Cl)cc1Cl)c1ccncc1,-,-,H37Rv (ATCC 27294),-,-,MIC,15 µg/mL
Cc1ccc(NC(=O)c2cnccn2)cc1,-,resazurin,ATCC 27294,-,-,MIC,100 µg/mL
CC[C@@H](C)[C@@H]1NC(=O)[C@@H](CC(C)C)NC(=O)[C@H](CC(C)C)NC(=O)[C@H](Cc2c[nH]c3ccccc23)NC(=O)[C@@H](CCCN)NC(=O)[C@H](CO)NC1=O,-,broth dilution / resazurin,H37Rv,-,-,MIC100,15 µM
COc1cc(/C=N/NC(=O)C2CCNCC2)ccc1O,-,-,-,-,-,MIC,>40 µg/mL
O=C(Nc1ccc(C(F)(F)F)cc1)c1cnccn1,-,resazurin,ATCC 27294,-,-,MIC,>100 µg/mL
O=C(NN=C1CCCC1)c1cccnc1,-,-,-,-,-,MIC,1 µg/mL
CCCc1c2c([nH]c(=O)c1C)C(=O)c1[nH]c(=O)c(C)c(CCC)c1C2=O,-,resazurin / fluorescence,H37Rv,Rifampicin-resistant,-,MIC90,0.27 µg/mL
CN(C)c1cc2nc(C3CCCCC3)[nH]c2cc1NC(=O)c1ccc(OC(F)(F)F)cc1F,-,resazurin,H37Rv,-,-,MIC,0.31 µg/mL
O=[N+]([O-])c1cc2ncccc2c2ncccc12,-,-,CS-R,-,-,MIC,12.5 µg/mL
CC[C@@H](C)[C@@H]1NC(=O)[C@@H](CC(C)C)NC(=O)[C@H](CC(C)C)NC(=O)[C@H](Cc2c[nH]c3ccccc23)NC(=O)[C@@H](CCCN)NC(=O)[C@H](COC(C)(C)C)NC1=O,-,broth dilution / resazurin,H37Rv,-,-,MIC100,>40 µM
O=C(Cc1ccccc1)NN1C(=O)C(Cl)C1c1ccccc1,-,resazurin,H37Rv,-,-,MIC bound,>6.25 µg/mL
CCOC(=O)CCCNC(CC(=O)OCC)[C@H]1O[C@@H]2OC(C)(C)O[C@@H]2[C@H]1OCc1ccccc1,-,-,H37Ra,-,-,MIC,>25 µg/mL
CO[C@H]1/C=C/O[C@@]2(C)Oc3c(C)c(O)c4c(O)c(c5c(c4c3C2=O)NC2(CC3CCC(C2)N3)N=5)=NC(=O)/C(C)=C\C=C\[C@H](C)[C@H](O)[C@@H](C)[C@@H](O)[C@@H](C)[C@H](OC(C)=O)[C@@H]1C,-,GFP,-,-,-,MIC90,10 µg/mL
CCc1c(C)[nH]c(C2=NCCC2)c1C,12.5 µg/mL,BACTEC,H37Rv,-,-,inhibition,35%
CN(C)c1ccc(/C=N/NC(=O)c2ccncc2)cc1,-,-,-,-,-,MIC,1 µg/mL
CCCCCCCCCCCCCCCCNC(CC(=O)OCC)[C@H]1O[C@@H]2OC(C)(C)O[C@@H]2[C@H]1OC,-,-,H37Ra,-,-,MIC,12.5 µg/mL
CO[C@H]1/C=C/O[C@@]2(C)Oc3c(C)c(O)c4c(O)c(c5c(c4c3C2=O)NC2(CCN(CC(C)C)CC2)N=5)=NC(=O)/C(C)=C\C=C\[C@H](C)[C@H](O)[C@@H](C)[C@@H](O)[C@@H](C)[C@H](OC(C)=O)[C@@H]1C,-,GFP,-,-,-,MIC90,3.5 µg/mL
COC(=O)NC1C(=O)OC2C1CC1OC12,-,BACTEC,H37Rv,-,-,MIC bound,>12.5 µg/mL
CC(=N/NC(=O)c1cccnc1)/C(C)=N/O,-,-,-,-,-,MIC,100 µg/mL
NC(=[SH+])[N-]/N=C/c1nccc2ccccc12.[Cl][Cu],12.5 µg/mL,BACTEC,H37Rv,-,-,inhibition,92%
CC12C(=O)c3cccc(O)c3C(=O)C1CC13OC12C(=O)c1c(O)cccc1C3=O,-,resazurin,H37Rv (S-MTB),-,-,MIC,25 µg/mL
CN[C@@H]1[C@H](O[C@H]2[C@H](O[C@H]3[C@H](O)[C@@H](O)[C@H](N=C(N)N)[C@@H](O)[C@@H]3N=C(N)N)O[C@@H](C)[C@]2(O)C=O)O[C@@H](CO)[C@H](O)[C@H]1O,-,-,104396,-,-,MIC,≥2 µg/mL
NC(=O)C1CCN(N=Nc2c(-c3ccccc3)n[nH]c2-c2ccccc2)CC1,-,resazurin,H37Rv,-,-,MIC bound,<6.25 µg/mL
CCCCCCCCCCCCNC(CC(=O)O)[C@H]1O[C@@H]2OC(C)(C)O[C@@H]2[C@H]1OC,-,-,H37Ra,-,-,MIC,>25 µg/mL
Clc1cc2nnn(C3CCCO3)c2cc1Cl,-,BACTEC,H37Rv,-,-,MIC bound,>6.25 µg/mL
CCOC(=O)CC(NCc1ccccc1)[C@H]1O[C@@H]2OC(C)(C)O[C@@H]2[C@H]1OCc1ccccc1,-,-,H37Rv,-,-,MIC,50 µg/mL
CC(C)CC1C(=O)N[C@H](CC(C)C)C(=O)N[C@@H](C(C)C)C(=O)N(C)C(CC(N)=O)C(=O)N[C@H](CCCN)C(=O)N[C@@H](Cc2c[nH]c3ccccc23)C(=O)N1C,-,broth dilution / resazurin,H37Rv,-,-,MIC100,>80 µM
CCCCN(CCCC)CCNc1ccc(C)c2sc3cc(Cl)ccc3c(=O)c12,-,BACTEC,H37Rv,-,VERO,MIC,1.6 µg/mL
CC(C)C[C@@H]1NC(=O)[C@H](Cc2c[nH]c3ccccc23)NC(=O)[C@@H](CCCN)NC(=O)[C@@H](CCCN)NC(=O)[C@H](C(C)C)NC(=O)[C@@H](CC(C)C)NC1=O,-,broth dilution / resazurin,H37Rv,-,-,MIC100,2.5 µM
CN[C@@H]1[C@H](O[C@H]2[C@H](O[C@H]3[C@H](O)[C@@H](O)[C@H](N=C(N)N)[C@@H](O)[C@@H]3N=C(N)N)O[C@@H](C)[C@]2(O)C=O)O[C@@H](CO)[C@H](O)[C@H]1O,-,resazurin / fluorescence,H37Rv,Streptomycin-resistant,-,MIC90,>2 µg/mL
CO[C@H]1/C=C/O[C@@]2(C)Oc3c(C)c(O)c4c(O)c(c5c(c4c3C2=O)N[C@]2(CCCN(C)CC2)N=5)=NC(=O)/C(C)=C\C=C\[C@H](C)[C@H](O)[C@@H](C)[C@@H](O)[C@@H](C)[C@H](OC(C)=O)[C@@H]1C,-,GFP,-,-,-,MIC90,10 µg/mL
O=C(Nc1ccc([N+](=O)[O-])cc1)c1cnccn1,-,resazurin,ATCC 27294,-,-,MIC,>100 µg/mL
CO[C@H]1/C=C/O[C@@]2(C)Oc3c(C)c(O)c4c(O)c(c(/C=N/N(c5ccccc5)c5ccccc5)c(O)c4c3C2=O)NC(=O)/C(C)=C\C=C\[C@H](C)[C@H](O)[C@@H](C)[C@@H](O)[C@@H](C)[C@H](OC(C)=O)[C@@H]1C,-,BACTEC,H37Rv,-,-,MIC,<0.1 µg/mL
COc1ccccc1NC(=O)c1cnccn1,-,resazurin,ATCC 27294,-,-,MIC,>100 µg/mL
O=C(O)CN1C(=O)CN=C(c2ccccn2)c2cc(Cl)ccc21,12.5 µg/mL,BACTEC,H37Rv,-,-,inhibition,6%
CO[C@H]1/C=C/O[C@@]2(C)Oc3c(C)c(O)c4c(O)c(c(/C=N/N5CCN(C)CC5)c(O)c4c3C2=O)NC(=O)/C(C)=C\C=C\[C@H](C)[C@H](O)[C@@H](C)[C@@H](O)[C@@H](C)[C@H](OC(C)=O)[C@@H]1C,-,-,11 isolates (MDR),-,-,MIC50,>32 µg/mL
O=C(N/N=C/c1cccc(O)c1)c1ccncc1,-,-,-,-,-,MIC,0.1 µg/mL
O=[N+]([O-])c1nccn1[C@@H]1O[C@H](CO)[C@@H](O)[C@H]1O,6.25 µg/mL,resazurin,H37Rv,-,-,inhibition,8%
COc1ccc(CC2NC(=O)[C@@H](CCCN)NC(=O)[C@H](CC(N)=O)NC(=O)[C@H](C(C)C)NC(=O)[C@@H](CC(C)C)NC(=O)[C@H](CC(C)C)NC2=O)cc1,-,broth dilution / resazurin,H37Rv,-,-,MIC100,>80 µM
COc1ccc2c(O)c3[n+](cc2c1OC)CCc1cc2c(cc1-3)OCO2,12.5 µg/mL,BACTEC,H37Rv,-,-,inhibition,31%
COc1ccc(NC(=O)c2cnccn2)cc1,-,resazurin,ATCC 27294,-,-,MIC,>100 µg/mL
O=C(NNC(=O)c1ccc(F)cc1Cl)c1ccncc1,-,-,H37Rv (ATCC 27294),-,-,MIC,10 µg/mL
O=C(N/N=C/c1cc(Cl)cc(Cl)c1O)c1ccncc1,-,-,-,-,-,MIC,0.1 µg/mL
CC1=CC(=O)c2c(O)ccc(-c3ccc(O)c4c3C(=O)C(C)=CC4=O)c2C1=O,-,resazurin,H37Rv (S-MTB),-,-,MIC,3.13 µg/mL
CC(C)C[C@@H]1NC(=O)[C@H](Cc2c[nH]c3ccccc23)NC(=O)[C@@H](CCCN)NC(=O)[C@H](CC(N)=O)NC(=O)[C@H](C)NC(=O)[C@@H](CC(C)C)NC1=O,-,broth dilution / resazurin,H37Rv,-,-,MIC100,>80 µM
COc1cc(CN2Cc3c(N)nc(N)nc3C2=O)cc(OC)c1C,-,BACTEC,H37Rv,-,-,MIC,≥12.8 µg/mL
NC[C@H]1O[C@H](O[C@H]2[C@H](O)[C@@H](O[C@H]3O[C@H](CO)[C@@H](O)[C@H](N)[C@H]3O)[C@H](N)C[C@@H]2N)[C@H](O)[C@@H](O)[C@@H]1O,-,resazurin / fluorescence,H37Rv,Cycloserine-resistant,-,MIC90,0.98 µg/mL
CCOc1ccc(Nc2nc3c(s2)C(=O)c2ccccc2C3=O)cc1,-,BACTEC,H37Rv,-,-,MIC,1.6 µg/mL
CC[C@H]1OC(=O)[C@H](C)[C@@H](O[C@H]2C[C@@](C)(OC)[C@@H](O)[C@H](C)O2)[C@H](C)[C@@H](O[C@@H]2O[C@H](C)C[C@H](N(C)C)[C@H]2O)[C@](C)(OC)C[C@@H](C)C(=O)[C@H](C)[C@@H](O)[C@]1(C)O,-,-,22 isolates (rifampicin isoniazid-susceptible),-,-,MIC90,8 µg/mL
Nc1ccc2nc3cc(Nc4ccccc4)c(=Nc4ccccc4)cc-3n(-c3ccccc3)c2c1,-,-,EMB-R,-,-,MIC,0.8 µg/mL
O=C(NNC(=O)c1c(Cl)cccc1Cl)c1ccncc1,-,-,H37Rv (ATCC 27294),-,-,MIC,15 µg/mL
COc1cc2c(cc1OC)C1c3cc(OC)c(OC)cc3CC(=O)N1CC2,12.5 µg/mL,BACTEC,H37Rv,-,-,inhibition,66%
CSCC[C@@H]1NC(=O)[C@@H](CC(C)C)NC(=O)[C@H](CC(C)C)NC(=O)[C@H](Cc2c[nH]c3ccccc23)NC(=O)[C@@H](CCCN)NC(=O)[C@H](CC(N)=O)NC1=O,-,broth dilution / resazurin,H37Rv,-,-,MIC100,>80 µM

7 of the rows above, restated:

compound,tested at,method,strain,mutations,cell line,endpoint,result
O=C(NNC(=O)c1ccc(F)cc1Cl)c1ccncc1,-,-,H37Rv (ATCC 27294),-,-,MIC,10 µg/mL
O=C(NNC(=O)c1ccc(Cl)c([N+](=O)[O-])c1)c1ccncc1,-,-,H37Rv (ATCC 27294),-,-,MIC,0.5 µg/mL
O=C1C(N=Nc2ccccc2)Sc2nc3ccccc3n21,-,BACTEC,H37Rv,-,-,MIC,≥12.8 µg/mL
O=C(NNC(=O)c1c(Cl)cccc1Cl)c1ccncc1,-,-,H37Rv (ATCC 27294),-,-,MIC,15 µg/mL
O=C(Cc1ccccc1)NN1C(=O)C(Cl)C1c1ccccc1,-,resazurin,H37Rv,-,-,MIC bound,>6.25 µg/mL
CC(C)C[C@@H]1NC(=O)[C@H](Cc2c[nH]c3ccccc23)NC(=O)[C@@H](CCCN)NC(=O)[C@@H](CCCN)NC(=O)[C@H](C(C)C)NC(=O)[C@@H](CC(C)C)NC1=O,-,broth dilution / resazurin,H37Rv,-,-,MIC100,2.5 µM
COc1ccccc1NC(=O)c1cnccn1,-,resazurin,ATCC 27294,-,-,MIC,>100 µg/mL